Measured values published in US6969738B2, “Malic acid diester surfactants” (Air Products and Chemicals, Inc., priority 1999, dated 2005).

Tested on: biomass seed from a Easton, Pa. Wastewater Treatment Plant, not acclimatized
Test: Carbonaceous Biological Demand test (CBOD5, CBOD28), percent biodegradation = CBOD/COD x 100
Conditions: for Percent Biodegradation at 5 days, average / Percent Biodegradation at 5 days, Trial 1 / Percent Biodegradation at 5 days, Trial 2 / Percent Biodegradation at 5 days, Trial 3: CBOD5, unacclimatized biomass; for Percent Biodegradation at 5 days, average: average of trials 1-3; for Percent Biodegradation at 28 days, average / Percent Biodegradation at 28 days, Trial 4 / Percent Biodegradation at 28 days, Trial 5 / Percent Biodegradation at 28 days, Trial 6: CBOD28, unacclimatized biomass; for Percent Biodegradation at 28 days, average: average of trials 4-6

SMILES | Percent Biodegradation at 5 days, average | Percent Biodegradation at 5 days, Trial 1 | Percent Biodegradation at 5 days, Trial 2 [%] | Percent Biodegradation at 5 days, Trial 3 [%] | Percent Biodegradation at 28 days, average | Percent Biodegradation at 28 days, Trial 4 | Percent Biodegradation at 28 days, Trial 5 | Percent Biodegradation at 28 days, Trial 6
CCCCOC(=O)CC(O)C(=O)OCCCC (racemic) [Example 2, Dibutyl-DL-malate] | 35% | 38% | 35 | 32 | 100 100 100 100 100% | 100 100 100 100 100% | 100 100 100 100 100% | 100 100 100 100 100%
CC(C)COC(=O)CC(O)C(=O)OCC(C)C (racemic) [Example 3, Diisobutyl-DL-malate] | 14% | 16% | 13 | 14 | 100 100 100 100% | 100 100 100 100% | 100 100 100 100% | 100 100 100 100%
CCC(C)OC(=O)CC(O)C(=O)OC(C)CC (racemic) [Example 4, Di-sec-butyl-DL-malate] | 1% | 0% | 3 | 0 | 93% | 79% | 100% | 100%
CCCCCOC(=O)CC(O)C(=O)OCCCCC (racemic) [Example 5, Dipentyl-DL-malate] | 49% | 53% | 47 | 47 | 87% | 91% | 88% | 83%
CC(C)CCOC(=O)CC(O)C(=O)OCCC(C)C (racemic) [Example 6, Diisoamyl-DL-malate] | 35% | 31% | 37 | 39 | 77% | 100% | 76% | 54%
CCC(C)COC(=O)CC(O)C(=O)OCC(C)CC (racemic) [Example 7, Di(2-methylbutyl)-DL-malate] | 29% | 26% | 30 | 30 | 86% | 88% | 85% | 86%
CCCCCCOC(=O)CC(O)C(=O)OCCCCCC (racemic) [Example 8, Dihexyl-DL-malate] | 51% | 61% | 46 | 47 | 94% | 88% | 95% | 100%
CC(C)CC(C)OC(=O)CC(O)C(=O)OC(C)CC(C)C (racemic) [Example 9, Di(4-methyl-2-pentyl)-DL-malate] | 2% | 2% | 2 | 0 | 39% | 29% | 29% | 59%
O=C(CC(O)C(=O)OCc1ccccc1)OCc1ccccc1 (racemic) [Example 10, Dibenzyl-DL-malate] | 44 — — 44% | 44 — — 44% |  |  | 89% | 79% | 91% | 96%
CC(C)OC(=O)C[C@H](O)C(=O)OC(C)C [Example 1, Diisopropyl-(S)-(−)-malate] | 1% | 2% | 0 | 0 | 100 100 100 100% | 100 100 100 100% | 100 100 100 100% | 100 100 100 100%
